Pooled drug test results. Numbers come from NIAID ChemDB, via PubChem.

Common to all: growth or infection tests; organism: Cryptococcus neoformans

MIC50, MIC90 and the like: level of inhibition, or share of isolates inhibited.

structure,method,measure,strain or isolate,value
O[C@](Cn1cncn1)(Cn1cnc(/C=C/c2ccc(OCC(F)(F)C(F)F)cc2)n1)c1ccc(F)cc1F,-,MIC,TIMM0354,0.39 µg/mL
C[n+]1c2cccc(O)c2cc2sc3ccccc3c21,broth dilution,EC50,ATCC 90113,>20 µg/mL
Cc1cc(NS(=O)(=O)c2ccc(N)cc2)no1,-,MIC,IFM 40216,32 µg/mL
Oc1ccccc1C=Nc1ccccc1O,-,MIC99,C-3-1,4 µg/mL
C[C@@H](n1cnc2cc(Cl)ccc2c1=O)[C@](O)(Cn1cncn1)c1ccc(F)cc1F,-,MIC,Isolate H99,0.0195 µg/mL
Oc1cccc(C=Nc2ccccc2O)c1,-,MIC99,LMM 820,2.8 µg/mL
CNC1C(C)OC(O[C@H]2c3cc(C)c(C(=O)N[C@H](C)C(=O)N[C@@H](CC(=O)O)C(=O)O)c(O)c3-c3c(cc4c(c3O)C(=O)c3cc(OC)cc(O)c3C4=O)[C@@H]2O)C(O)C1OC1OCC(O)C(O)C1O,-,MIC,IAM 4514,>100 µg/mL
Oc1ccccc1N=Cc1ccc(F)cc1,broth dilution,MIC,ATCC 28957,4 µg/mL
COC(/C=C/c1ccccc1)=C1/C(=O)C=C(C)C1=O,-,MIC,ATCC 90113,6.25 µg/mL
O=[N+]([O-])c1ccc(C=Nc2ccccc2O)cc1,-,MIC99,LMM 820,16 µg/mL
CCCCOc1ccccc1N1CCN(CCc2nnn(C(C)C(O)(Cn3cncn3)c3ccc(F)cc3F)n2)CC1,-,MIC,LA314,4 µg/mL
N=C(N)c1ccc(OCCCC2CCN(CCCOc3ccc(C(=N)N)cc3)CC2)cc1,-,MIC,ATCC 90113,0.0313 µg/mL
CNC1C(C)OC(O[C@H]2c3cc(C)c(C(=O)N[C@H](C)C(=O)NCC(=O)O)c(O)c3-c3c(cc4c(c3O)C(=O)c3cc(OC)cc(O)c3C4=O)[C@@H]2O)C(O)C1OC1OCC(O)C(O)C1O,-,MIC,IAM 4514,>50 µg/mL
CN[C@H]1CC[C@@H](c2ccc(Cl)c(Cl)c2)c2ccccc21,broth dilution,MIC90,XL1495,4 µg/mL
O=C1/C(=C/c2ccc(-c3ccccc3)cc2)CSc2ccccc21,-,MIC,93/V,6 µg/mL
OC(CN1CCN(c2ccc(OCc3ccncc3)cc2)CC1)(Cn1cncn1)c1ccc(F)cc1F,-,MIC80,BLS74A,0.5 µg/mL
Cc1ccc(-c2c3c(N)c4c(nc3nc3c2c(C)nn3-c2ccccc2)CCCCC4)cc1,broth dilution / absorbance,MIC50,ATCC 32264,125 µg/mL
Cc1cc(NS(=O)(=O)c2ccc(N)cc2)nc(C)n1,-,MIC,IFM 40215,≥256 µg/mL
CC(C)C(=N)CCC[C@H]1CO[C@@](Cn2ccnc2)(c2ccc(F)cc2F)C1,-,MIC,IFM.40092,25 µg/mL
C[C@H](n1nnnc1CCN1CCN(c2ccc(Cl)cc2)CC1)[C@](O)(Cn1cncn1)c1ccc(F)cc1F,-,MIC,LA314,4 µg/mL
COc1cccc2c1C(=O)c1c(O)c3c(c(O)c1C2=O)C[C@@](O)(C(=O)CO)C[C@@H]3O[C@H]1C[C@H](N)[C@@H](O)[C@H](C)O1,-,MIC,Clinical isolate (capsule-negative),>100 µM
CCc1ccc(/C=C2\CCc3ccccc3C2=O)cc1,-,MIC,25,12.5 µg/mL
Cc1noc(NS(=O)(=O)c2ccc(N)cc2)c1C,-,MIC,IFM 40216,64 µg/mL
COc1ccc(/C=C2\CCc3ccccc3C2=O)cc1,-,MIC,25,100 µg/mL
CN1CCC[C@H]1CCCCCCCCCc1ccccc1,-,MIC,IP960-67,25 µg/mL
Cc1nn(-c2ccccc2)c2nc3nc4c(c(N)c3c(-c3ccc(Cl)cc3)c12)CCC4,broth dilution / absorbance,MIC80,ATCC 32264,250 µg/mL
COc1ccc(NS(=O)(=O)c2ccc(N)cc2)nn1,-,MIC,IFM 40216,≥256 µg/mL
COc1ccc2c(c1)sc1cc3ccccc3[n+](C)c12,broth dilution,EC50,ATCC 90113,>20 µg/mL
C[C@H](n1nnc(CCN2CCN(Cc3ccccc3)CC2)n1)[C@](O)(Cn1cncn1)c1ccc(F)cc1F,-,MIC,LA314,>16 µg/mL
Oc1ccccc1N=Cc1ccccc1,-,MIC99,C-3-1,2 µg/mL
CC(C)C(=O)CCC[C@H]1CO[C@@](Cn2cncn2)(c2ccc(F)cc2F)C1,-,MIC,A.34144,12.5 µg/mL
Cc1nn(-c2ccccc2)c2nc3nc4c(c(N)c3c(-c3ccc(Cl)cc3)c12)CCCC4,broth dilution / absorbance,MIC50,ATCC 32264,250 µg/mL
Nc1[nH]c(=O)ncc1F,-,MIC50,37 strains,8 µg/mL
CSc1cc(-c2ccc(-c3cccnc3)cc2)c(C(=O)O)s1,-,MIC,CN-17,>100 µg/mL
C[C@H](n1nnc(CCN2CCN(c3ccccc3Cl)CC2)n1)[C@](O)(Cn1cncn1)c1ccc(F)cc1F,-,MIC,LA314,8 µg/mL
CNC1C(C)OC(O[C@H]2c3cc(C)c(C(=O)N[C@H](C)C(=O)OCOC(=O)C(C)(C)C)c(O)c3-c3c(cc4c(c3O)C(=O)c3cc(OC)cc(O)c3C4=O)[C@@H]2O)C(O)C1OC1OCC(O)C(O)C1O,-,MIC,IAM 4514,6.3 µg/mL
Cc1ccc(-c2c3c(N)c4c(nc3nc3c2c(C)nn3-c2ccccc2)CCCC4)cc1,broth dilution / absorbance,MIC80,ATCC 32264,125 µg/mL
CNC1C(C)OC(O[C@H]2c3cc(C)c(C(=O)N[C@H](C)C(=O)N[C@H](C)C(=O)O)c(O)c3-c3c(cc4c(c3O)C(=O)c3cc(OC)cc(O)c3C4=O)[C@@H]2O)C(O)C1OC1OCC(O)C(O)C1O,-,MIC,IAM 4514,>100 µg/mL
C=C1CO[C@H]2[C@@H](C)OC(OC[C@@]34C[C@H]5[C@H](C)CC[C@@H]5[C@@]5(C=O)C[C@@H]3C=C(C(C)C)[C@@]45C(=O)O)C[C@@H]12,-,Mean MIC,137 strains (serotype A),0.537 µg/mL
CC[C@H]1/C=C(\C)[C@H](O)[C@H](C)C[C@H](OC)[C@H]2O[C@@](O)(C(=O)C(=O)N3CCCC[C@H]3C(=O)O[C@H](/C(C)=C/[C@@H]3CC[C@@H](O)[C@H](OC)C3)[C@H](C)[C@@H](O)CC1=O)[C@H](C)C[C@@H]2OC,-,MIC,C20,12.5 µg/mL
CC(C(O)(Cn1cncn1)c1ccc(F)cc1F)S(C)(=O)=O,-,MIC,R715 (AZOLE-R),20 µM
C[C@@H](n1ccn(-c2ccc(C(F)(F)F)cc2)c1=O)C(O)(Cn1cncn1)c1ccc(F)cc1F,-,MIC,TIMM1855,0.06 µg/mL
CC(C)N=C(N)c1ccc2nc(-c3ccc4c(c3)Cc3cc(-c5nc6ccc(C(N)=NC(C)C)cc6[nH]5)ccc3-4)[nH]c2c1,-,MIC,H99,0.78 µg/mL
CCOC(=O)c1sc(SC)cc1-c1ccccc1,-,MIC,CN-17,>100 µg/mL
Cn1nc(Cc2ccc(Cl)cc2)c2ccccc2c1=O,broth dilution,MFC,Clinical isolate (IM 983036),≥250 µg/mL
C[C@@H](n1ccn(-c2ccc(OCC(F)(F)C(F)F)cc2)c1=O)C(O)(Cn1cncn1)c1ccccc1F,-,MIC,TIMM1740,0.06 µg/mL
Nc1[nH]c(=O)ncc1F,-,MIC90,42 isolates (HIV+),4 µg/mL
C[C@@H](N1CCN(c2ccc(OC(F)(F)C(F)F)cc2)C1=O)C(O)(Cn1cncn1)c1ccc(F)cc1F,-,MIC,TIMM1855,0.016 µg/mL
CCOC(=O)c1c(C)nc(NCCCCNc2ccnc3cc(Cl)ccc23)nc1-c1ccccc1[N+](=O)[O-],-,MIC99,WP,8 µg/mL
COc1ccc(/C=C2\CSc3ccccc3C2=O)cc1,-,MIC,Farwania,25 µg/mL
C[C@@H](n1ccn(-c2ccc(OC(F)(F)F)cc2)c1=O)C(O)(Cn1cncn1)c1ccc(F)cc1F,-,MIC,TIMM1855,0.06 µg/mL
CCc1cc(C(C)(C)C)nc2c(NC(C)CCCN)cc(OC)c(Oc3cccc(C(F)(F)F)c3)c12,-,MIC,-,10 µg/mL
CSc1cc(-c2ccc(F)cc2)c(C(=O)O)s1,-,MIC,CN-17,>100 µg/mL
C[C@@H](n1ncn(-c2ccc(OCC(F)(F)C(F)F)cc2)c1=O)[C@](O)(Cn1cncn1)c1ccc(F)cc1F,-,MFC,DUMC 119.95,0.5 µg/mL
CC(C)C(=O)CCC[C@@H]1CO[C@@](Cn2ccnc2)(c2ccc(F)cc2F)C1,-,MIC,A.34144,0.78 µg/mL
CNC1C(C)OC(O[C@H]2c3cc(C)c(C(=O)N[C@H](C)C(=O)N[C@@H](CCCCN)C(=O)O)c(O)c3-c3c(cc4c(c3O)C(=O)c3cc(OC)cc(O)c3C4=O)[C@@H]2O)C(O)C1OC1OCC(O)C(O)C1O,-,MIC,IAM 4514,>100 µg/mL
CCCCCOc1ccc(-c2cc(-c3ccc(C(=O)N[C@H]4C[C@@H](O)[C@@H](O)NC(=O)[C@@H]5[C@@H](O)[C@@H](C)CN5C(=O)[C@H]([C@H](O)CC(N)=O)NC(=O)[C@H]([C@H](O)[C@@H](O)c5ccc(O)c(OS(=O)(=O)O)c5)NC(=O)[C@@H]5C[C@@H](O)CN5C(=O)[C@H]([C@@H](C)O)NC4=O)cc3)no2)cc1,-,MIC50,5 isolates,>64 µg/mL
NCCNC(=O)C1=Nc2ccc(NC(=O)C3=Nc4ccc(C(=O)Nc5ccc6[nH]c(C(=O)NCCN)cc6c5)cc4C3)cc2C1,-,MIC,Serotype A,8 µg/mL
CC[C@@]1(O)C[C@H](O[C@H]2C[C@H](N(C)C)[C@H](O[C@H]3C[C@H](O)[C@H](O[C@H]4CCC(=O)[C@H](C)O4)[C@H](C)O3)[C@H](C)O2)c2c(cc3c(c2O)C(=O)c2c(O)cccc2C3=O)[C@H]1C(=O)OC,-,MIC,Clinical isolate (capsule-negative),>100 µM
NC(=S)N/N=C(\N)c1ccccn1,-,MIC100,ATCC 24067A,52.53 µM
Oc1ccccc1N=Cc1cccc(O)c1O,-,MIC99,C-3-1,2.8 µg/mL
CCCCCOc1ccc(-c2cc(-c3ccc(C(=O)N[C@H]4C[C@@H](O)[C@@H](O)NC(=O)[C@@H]5[C@@H](O)[C@@H](C)CN5C(=O)[C@H]([C@H](O)CC(N)=O)NC(=O)[C@H]([C@H](O)[C@@H](O)c5ccc(O)c(OS(=O)(=O)O)c5)NC(=O)[C@@H]5C[C@@H](O)CN5C(=O)[C@H]([C@@H](C)O)NC4=O)cc3)no2)cc1,-,MIC,FMR 8411,64 µg/mL
CCOC(=O)c1sc2cc(-c3ccc(Cl)cc3)oc(=O)c2c1N,-,MIC,CN-17,>100 µg/mL
COc1cc(O)c2c(c1)C(=O)c1c(cc3c(c1O)-c1c(cc(C)c(C(=O)NC(CO)C(=O)O)c1O)[C@H](OC1OC(C)C(N(C)C)C(OC4OCC(O)C(O)C4O)C1O)[C@H]3O)C2=O,-,MIC,IAM 4514,1.6 µg/mL
Oc1ccc(O)c(C=Nc2ccccc2O)c1,-,MIC99,VM-MCMMPI,8 µg/mL
CC(C)C(=O)CCC[C@H]1CO[C@@](Cn2cccc2)(c2ccc(F)cc2F)C1,-,MIC,A.34144,>100 µg/mL
COc1ccc(/C=C2\CCc3ccccc3C2=O)cc1OC,-,MIC,93/V,6 µg/mL
C[C@@H](N1CCN(c2ccc(OC(F)(F)C(F)F)cc2)C1=O)C(O)(Cn1cncn1)c1ccccc1F,-,MIC,TIMM1740,<0.016 µg/mL
CC(=O)[C@]1(O)Cc2c(O)c3c(c(O)c2[C@@H](O[C@H]2C[C@H](N)[C@H](O)[C@H](C)O2)C1)C(=O)c1ccccc1C3=O,-,MIC,NCPF 3379,13.4 µM
CSc1cc(-c2ccc(Cl)cc2)c(C(=O)O)s1,-,MIC,CN-17,>100 µg/mL
O=C1/C(=C/c2ccc3c(c2)OCO3)CSc2ccc(Cl)cc21,-,MIC,Farwania,12.5 µg/mL

A second listing of 4 rows from above:

structure	method	measure	strain or isolate	value
C[C@@H](n1ncn(-c2ccc(OCC(F)(F)C(F)F)cc2)c1=O)[C@](O)(Cn1cncn1)c1ccc(F)cc1F	-	MFC	DUMC 119.95	0.5 µg/mL
O=C1/C(=C/c2ccc3c(c2)OCO3)CSc2ccc(Cl)cc21	-	MIC	Farwania	12.5 µg/mL
CN[C@H]1CC[C@@H](c2ccc(Cl)c(Cl)c2)c2ccccc21	broth dilution	MIC90	XL1495	4 µg/mL
CC(C)C(=O)CCC[C@H]1CO[C@@](Cn2cccc2)(c2ccc(F)cc2F)C1	-	MIC	A.34144	>100 µg/mL

Conditions beyond the fields shown may differ between rows. ECn is the concentration giving n% inhibition of infection, replication or growth. An empty or dashed field is not shown.